Pooled drug test results. Numbers come from NIAID ChemDB, via PubChem.

Common to all: enzyme or target tests; organism: HIV-1; protein: Reverse transcriptase; measure: Ki

Conditions beyond the fields shown may differ between rows. An empty or dashed field is not shown.

structure,strain,changes,read by,conditions,result
Nc1ncnc2c1ncn2[C@H]1CC[C@@H](COP(=O)(O)OP(=O)(O)OP(=O)(O)O)O1,-,RT-Q151M,nucleotide incorporation / radiometric,-,1.3 µM
Nc1nc2c(ncn2[C@H]2C=C[C@@H](COP(=O)(O)OP(=O)(O)OP(=O)(O)O)C2)c(=O)[nH]1,-,RT-M184V,-,-,14 µM
Cc1cn([C@H]2C[C@H](N=[N+]=[N-])[C@@H](CO[P@](=O)([Se-])OP(=O)(O)C(F)(F)P(=O)(O)O)O2)c(=O)[nH]c1=O,-,-,fluorescence,-,0.064 µM
S=C(NCCc1ccc(Br)cc1)Nc1ccc(Br)cn1,-,-,nucleotide incorporation,-,6.3 µM
Nc1ccn([C@@H]2CS[C@H](COP(=O)(O)OP(=O)(O)OP(=O)(O)O)O2)c(=O)n1,-,-,-,-,0.97 µM
[B-][P@](=O)(OC[C@H]1O[C@@H](n2cc(C)c(=O)[nH]c2=O)C[C@@H]1N=[N+]=[N-])OP(=O)(O)OP(=O)(O)O,-,-,-,-,0.00825 µM
Nc1ccn([C@H]2CC[C@@H](COP(=O)(O)OP(=O)(O)OP(=O)(O)O)O2)c(=O)n1,HXB2,RT-L74V T215Y,nucleotide incorporation,-,75 µM
S=C(NCCc1ccc(Br)cc1)Nc1ccc(Br)cn1,-,-,scintillation proximity,-,6.3 µM
Nc1nc(=O)n([C@@H]2CS[C@H](COP(=O)(O)OP(=O)(O)OP(=O)(O)O)O2)cc1F,HXB2,-,nucleotide incorporation,-,2.9 µM
S=C(NCCc1cccc(Cl)c1)Nc1ccc(Br)cn1,-,-,nucleotide incorporation,-,4.7 µM
Cc1cc(C)cc(C(=O)c2cc(Cl)ccc2OCCN2C(=O)NC(=O)C(C)C2C)c1,-,-,RT activity,pseudotyped,0.08 µM
Nc1ncnc2c1ncn2[C@H]1CC[C@@H](COP(=O)(O)OP(=O)(O)OP(=O)(O)O)O1,-,-,nucleotide incorporation,-,0.166 µM
C[C@H](CNC(=S)Nc1ccc(Cl)cn1)C1CCCCC1,-,-,-,-,>100 µM
O=c1c(O)c(-c2ccc(O)c(O)c2)oc2cc(O)cc(O)c12,-,-,nucleotide incorporation,-,0.52 µM
Cc1cn([C@H]2C=C[C@@H](COP(=O)(O)OP(=O)(O)OP(=O)(O)O)O2)c(=O)[nH]c1=O,-,RT-Y181I,RT activity,-,0.09 µM
Nc1ncnc2c1ncn2[C@@H]1CO[C@H](COP(=O)(O)OP(=O)(O)OP(=O)(O)O)C1,-,-,-,-,0.016 µM
Nc1ccn([C@@H]2CS[C@H](COP(=O)(O)OP(=O)(O)OP(=O)(O)O)O2)c(=O)n1,-,RT-A62V V75I F77L F116Y Q151M,nucleotide incorporation / radiometric,-,2.4 µM
C/C=C/c1cn([C@H]2C[C@H](O)[C@@H](COP(=O)(O)OP(=O)(O)OP(=O)(O)O)O2)c(=O)[nH]c1=O,IIIB,-,nucleotide incorporation,-,0.76 µM
Cc1cn([C@H]2C=C[C@@H](COP(=O)(O)OP(=O)(O)OP(=O)(O)O)O2)c(=O)[nH]c1=O,HXB2D,-,nucleotide incorporation,-,0.03 µM
CC(C)=CCN1Cc2cccc3[nH]c(=S)n(c23)C[C@@H]1C,-,-,-,-,0.87 µM
O=C(/C=C/c1ccc(O)c(O)c1)O[C@@H]1CC(O)(C(=O)O)C[C@@H](OC(=O)/C=C/c2ccc(O)c(O)c2)C1O,-,-,-,-,1.31 µM
Cc1cn([C@H]2C[C@H](N=[N+]=[N-])[C@@H](CO[P@@](=O)([Se-])OP(=O)(O)C(F)(F)P(=O)(O)O)O2)c(=O)[nH]c1=O,-,-,fluorescence,-,1.37 µM
Cc1cn([C@H]2CC[C@@H](COP(=O)(O)OP(=O)(O)OP(=O)(O)O)O2)c(=O)[nH]c1=O,IIIB,-,-,-,0.0019 µM
Nc1nc2c(ncn2[C@H]2C=C[C@@H](COP(=O)(O)OP(=O)(O)OP(=O)(O)O)C2)c(=O)[nH]1,-,-,fluorescence,-,0.037 µM
[B-][P@](=O)(OC[C@H]1O[C@@H](n2cc(C)c(=O)[nH]c2=O)C[C@@H]1N=[N+]=[N-])OP(=O)(O)C(F)(F)P(=O)(O)O,-,-,-,-,0.008 µM
C[C@H](NC(=S)Nc1ccc(Br)cn1)c1cccc2ccccc12,-,-,-,-,>100 µM
Cc1cn([C@H]2C[C@H](F)[C@@H](COP([O-])(=S)OP(=O)(O)C(F)(F)P(=O)(O)O)O2)c(=O)[nH]c1=O,-,-,fluorescence,-,0.735 µM
Nc1nc2c(ncn2[C@H]2CO[C@@H](COP(=O)(O)OP(=O)(O)OP(=O)(O)O)O2)c(=O)[nH]1,-,-,-,-,0.019 µM
C[C@@H](NC(=S)Nc1ccc(Br)cn1)c1cccc2ccccc12,-,-,-,-,0.01 µM
CSCSc1nc(Cc2ccccc2)c(C(C)C)c(=O)[nH]1,IIIB,-,-,-,0.5 µM
Nc1ncnc2c1ncn2[C@@H]1O[C@H](COP(=O)(O)OP(=O)(O)OP(=O)(O)O)C[C@@H]1F,-,RT-L74V,nucleotide incorporation / radiometric,-,9.5 µM
O=C(OC1[C@H](OC(=O)c2cc(O)c(O)c(O)c2)CC(O)(C(=O)O)C[C@H]1OC(=O)c1cc(O)c(O)c(O)c1)c1cc(O)c(O)c(O)c1,-,-,-,-,0.04 µM
Cc1ccc(CCNC(=S)Nc2ccc(Br)cn2)cc1,-,-,scintillation proximity,-,0.25 µM
COc1ccc2c(c1)N(C(=O)OC(C)C)[C@@H](CSC)C(=S)N2,IIIB,RT-P225H,RT activity,-,0.028 µM
O=c1c(O)c(-c2ccc(O)c(O)c2)oc2cc(O)c(O)c(O)c12,-,-,-,-,0.46 µM
Nc1ncnc2c1ncn2CCOCP(=O)(O)OP(=O)(O)OP(=O)(O)O,-,RT-K65R,nucleotide incorporation / radiometric,-,1.7 µM
O=c1[nH]c(=O)n([C@H]2C[C@H](O)[C@@H](COP(=O)(O)OP(=O)(O)OP(=O)(O)O)O2)cc1CO,IIIB,-,nucleotide incorporation,-,0.8 µM
Nc1nc2c(ncn2[C@H]2C=C[C@@H](COP(=O)(O)OP(=O)(O)OP(=O)(O)O)C2)c(=O)[nH]1,-,-,-,-,0.05 µM
C[C@H](NC(=S)Nc1ccccn1)C1CCCCC1,IIIB,-,nucleotide incorporation,-,100 µM
Cc1cn([C@H]2C[C@H](N)[C@@H](COP(=O)(O)OP(=O)(O)OP(=O)(O)O)O2)c(=O)[nH]c1=O,-,-,fluorescence,-,0.042 µM
Cc1cc(C)cc(C(=O)c2cc(Cl)ccc2OCCN2CCC(=O)NC2=O)c1,-,K103N + Y181C,RT activity,pseudotyped,57 µM
Cc1cn([C@H]2CC[C@@H](COP(=O)(O)OP(=O)(O)OP(=O)(O)O)O2)c(=O)[nH]c1=O,-,-,-,-,0.025 µM
O=C(O)Cn1cnc2c(Oc3ccccc3[N+](=O)[O-])nc(NC(=O)OCc3ccccc3)nc21,NNRTI-resistant,Y181I,nucleotide incorporation / radiometric,-,15 µM
CCOCn1c(Cc2ccccc2)c(C(C)C)c(=O)[nH]c1=O,IIIB,-,RT activity,-,0.08 µM
Cc1cn([C@H]2CC[C@@H](COP(=O)(O)OP(=O)(O)OP(=O)(O)O)O2)c(=O)[nH]c1=O,-,RT-M184V,-,-,8.1 µM
COc1cc(O)c2c(=O)c3c(O)c(-c4c(O)c([C@@H]5O[C@H](CO)[C@@H](O)[C@H](O)[C@H]5O)c(O)c5c(=O)cc(-c6ccc(O)c(O)c6)oc45)cc(O)c3oc2c1,-,-,-,-,43 µM
Cc1cn([C@H]2C[C@H](F)[C@@H](COP(=O)(O)OP(=O)(O)OP(=O)(O)O)O2)c(=O)[nH]c1=O,LAV,-,-,-,0.018 µM
C[C@@H](CNC(=S)Nc1ccccn1)C1CCCCC1,-,-,-,-,>100 µM
Nc1ccn([C@@H]2CS[C@H](COP(=O)(O)OP(=O)(O)OP(=O)(O)O)O2)c(=O)n1,-,RT-M184V,-,-,61 µM
Cc1cn([C@H]2C[C@H](N=[N+]=[N-])[C@@H](COP([O-])(=S)OP(=O)(O)C(F)(F)P(=O)(O)O)O2)c(=O)[nH]c1=O,-,-,-,-,0.09 µM
Cc1cn([C@H]2C[C@H](F)[C@@H](COP(=O)(O)OP(=O)(O)OP(=O)(O)O)O2)c(=O)[nH]c1=O,-,-,fluorescence,-,0.0093 µM
Cc1cn([C@@H]2C=C[C@H](COP(=O)(O)OP(=O)(O)OP(=O)(O)O)O2)c(=O)[nH]c1=O,-,RT-M184V,-,-,1600 µM
CC(=O)Oc1ccc(OC(C)=O)c(C[C@@]2(C)C3CCC[C@@](C)(CC[C@@]4(C)C5=CCCC(C)(C)[C@H]5CC[C@@H]4C)C3=CC[C@H]2C)c1,-,-,nucleotide incorporation / radiometric,-,26 µM
[B-][P@](=O)(OC[C@H]1O[C@@H](n2cc(C)c(=O)[nH]c2=O)C[C@@H]1N=[N+]=[N-])OP(=O)(O)C(F)(F)P(=O)(O)O,-,-,fluorescence,-,0.0095 µM
CCc1cn([C@H]2C[C@H](O)[C@@H](COP(=O)(O)OP(=O)(O)OP(=O)(O)O)O2)c(=O)[nH]c1=O,IIIB,-,nucleotide incorporation,-,0.64 µM

For reference, 4 entries again:

structure	strain	changes	read by	conditions	result
CSCSc1nc(Cc2ccccc2)c(C(C)C)c(=O)[nH]1	IIIB	-	-	-	0.5 µM
C[C@@H](NC(=S)Nc1ccc(Br)cn1)c1cccc2ccccc12	-	-	-	-	0.01 µM
S=C(NCCc1cccc(Cl)c1)Nc1ccc(Br)cn1	-	-	nucleotide incorporation	-	4.7 µM
Cc1cn([C@H]2CC[C@@H](COP(=O)(O)OP(=O)(O)OP(=O)(O)O)O2)c(=O)[nH]c1=O	-	-	-	-	0.025 µM